Pooled drug test results. Numbers come from NIAID ChemDB, via PubChem.

Shared fields: host cell toxicity; cell line: HEK 293; read-out: CC50

Blank or dashed fields: not listed here. CCn is the concentration with n% toxicity to the cells. Lines come from different laboratories, so protocols vary.

compound	read by	result
NCCC1=c2c(O)c3c(c(O)c2N=C1)=NC=CS3(=O)=O		3.9 µM
CCC(O)[NH+]1CC[NH+](C(O)CC)CC1.[Cl][Pt-2]([Cl])([Cl])([Cl])([Cl])[Cl]	fluorescence	>10 µM
O=C1N=C(N2CCOCC2)S/C1=C\c1ccc(-c2ccc(C(=O)O)c(O)c2)o1	MTT	53 µM
CCOC(=O)/C=C1\NCCc2cc3c(cc21)OCO3		<7.5 µM
CC1(C)C=C2C(CC[C@]3(C)[C@@H]2CC[C@@H]2[C@@]4(C)CC[C@H](OC(=O)CC(C)(C)C(=O)O)C(C)(C)[C@@H]4CC[C@]23C)[C@H](C(=O)O)C1		>300 µM
CCOC(=O)CCCCCOc1cccc(CN(C(=O)c2ccc(-c3cccc(-c4nnc(C)o4)c3)cc2)C(C)C)c1		>20 µM
CC(C)CCNc1nc2cc3ccccc3cc2nc1NCCC(C)C	fluorescence	>20 µM
CCOC(=O)CCCCOc1ccccc1NC(C)C		>20 µM
O=C1NC(=NCCc2ccc(Cl)c(Cl)c2)S/C1=C\c1ccc(-c2ccc(C(=O)O)c(O)c2)o1	MTT	>100 µM
CC(C)[C@@H]1CC[C@]2(C=O)CC[C@]3(C)[C@H](CC[C@@H]4[C@@]5(C)CC[C@H](OC(=O)CC(C)(C)C(=O)O)C(C)(C)[C@@H]5CC[C@]43C)[C@@H]12		>300 µM
C#CCCC(=O)CCCc1ccc(OC)c(OC)c1		<7.5 µM
COc1cccc(CN(C(=O)N[C@H](CO)Cc2ccccc2)N2CCOCC2)c1	MTT	37.2 µM
C=C(C)[C@@H]1CC[C@]2(C#N)CC[C@]3(C)[C@H](CC[C@@H]4[C@@]5(C)CC[C@H](OC(=O)CC(C)(C)C(=O)O)C(C)(C)[C@@H]5CC[C@]43C)[C@@H]12		>300 µM
CCOC(=O)CCCCCOc1cccc(CN(C(=O)c2ccc(-c3ccc(Cl)c(Cl)c3)cc2)C(C)C)c1		>20 µM
CC(C)[C@@H]1CC[C@]2(C=O)CC[C@]3(C)[C@H](CC[C@@H]4[C@@]5(C)CCC(OC(=O)CC(C)(C)C(=O)[O-])C(C)(C)[C@@H]5CC[C@]43C)[C@@H]12		>300 µM
O=C(O)CS(=O)c1ccc2c3c(cccc13)C(=O)c1ccccc1-2	fluorescence	>50 µM
CCOC(=O)CCCCCOc1cccc(CN(C(=O)c2ccc(-c3cn(S(=O)(=O)c4ccccc4)c4ccccc34)cc2)C(C)C)c1		>20 µM
O=C(N[C@H](CO)Cc1ccccc1)N(Cc1ccccc1)N1CCCCC1	MTT	34.8 µM
CC1=C(O)C(C)(C)C(=O)C2=C1O[C@H](c1ccccc1)CC2=O	sulforhodamine	>20 µg/mL
O=C1NC(=Nc2ccc(F)c(Cl)c2)S/C1=C\c1ccc(-c2ccc(C(=O)O)c(O)c2)o1	MTT	12 µM
O=C(N[C@H](CO)Cc1ccc(O)cc1)N(Cc1ccccc1)N1CCCCC1	MTT	47.9 µM
CCOC(=O)CCCCCOc1cccc(CN(C(=O)c2ccc(-c3cccc(OCC(C)C)c3)cc2)C(C)C)c1		>20 µM
Cc1ccc(-n2nc(C(C)(C)C)cc2Nc2nc3ccccc3nc2NCCCO)cc1	fluorescence	>20 µM

The first 2 rows once more:

| compound | read by | result |
|---|---|---|
| NCCC1=c2c(O)c3c(c(O)c2N=C1)=NC=CS3(=O)=O |  | 3.9 µM |
| CCC(O)[NH+]1CC[NH+](C(O)CC)CC1.[Cl][Pt-2]([Cl])([Cl])([Cl])([Cl])[Cl] | fluorescence | >10 µM |